{
  "sequences": {"note": "The chains behind the UniProt entries cited, without tags or fusion partners. Where a name states a change or a piece, a line headed by the entry shows the natural chain unless it says otherwise. Residues count along the entry.", "UniProt P43144, 26-479 limits assumed": "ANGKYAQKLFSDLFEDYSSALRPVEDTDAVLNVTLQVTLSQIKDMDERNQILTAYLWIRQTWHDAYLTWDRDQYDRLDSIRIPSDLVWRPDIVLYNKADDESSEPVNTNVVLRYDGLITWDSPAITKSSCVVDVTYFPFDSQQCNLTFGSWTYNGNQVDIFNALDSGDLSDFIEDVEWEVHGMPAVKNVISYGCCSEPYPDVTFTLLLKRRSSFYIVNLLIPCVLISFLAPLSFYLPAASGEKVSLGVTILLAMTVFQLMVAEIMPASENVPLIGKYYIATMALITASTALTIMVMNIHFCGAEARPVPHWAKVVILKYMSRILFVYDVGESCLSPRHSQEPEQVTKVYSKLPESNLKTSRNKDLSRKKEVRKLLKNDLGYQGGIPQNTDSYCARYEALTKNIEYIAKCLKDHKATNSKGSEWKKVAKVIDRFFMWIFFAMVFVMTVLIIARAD", "UniProt Q9JLB5, 25-447 limits assumed": "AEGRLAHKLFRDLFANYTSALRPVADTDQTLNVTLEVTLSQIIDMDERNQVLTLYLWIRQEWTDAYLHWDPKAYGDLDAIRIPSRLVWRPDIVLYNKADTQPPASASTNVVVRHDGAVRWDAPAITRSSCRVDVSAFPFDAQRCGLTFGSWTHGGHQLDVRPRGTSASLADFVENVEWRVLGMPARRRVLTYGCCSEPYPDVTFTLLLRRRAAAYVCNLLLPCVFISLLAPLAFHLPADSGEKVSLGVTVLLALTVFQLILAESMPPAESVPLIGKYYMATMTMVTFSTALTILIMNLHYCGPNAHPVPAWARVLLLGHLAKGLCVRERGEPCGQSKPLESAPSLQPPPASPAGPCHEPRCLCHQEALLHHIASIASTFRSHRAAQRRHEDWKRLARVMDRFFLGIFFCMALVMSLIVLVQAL", "UniProt P02716": "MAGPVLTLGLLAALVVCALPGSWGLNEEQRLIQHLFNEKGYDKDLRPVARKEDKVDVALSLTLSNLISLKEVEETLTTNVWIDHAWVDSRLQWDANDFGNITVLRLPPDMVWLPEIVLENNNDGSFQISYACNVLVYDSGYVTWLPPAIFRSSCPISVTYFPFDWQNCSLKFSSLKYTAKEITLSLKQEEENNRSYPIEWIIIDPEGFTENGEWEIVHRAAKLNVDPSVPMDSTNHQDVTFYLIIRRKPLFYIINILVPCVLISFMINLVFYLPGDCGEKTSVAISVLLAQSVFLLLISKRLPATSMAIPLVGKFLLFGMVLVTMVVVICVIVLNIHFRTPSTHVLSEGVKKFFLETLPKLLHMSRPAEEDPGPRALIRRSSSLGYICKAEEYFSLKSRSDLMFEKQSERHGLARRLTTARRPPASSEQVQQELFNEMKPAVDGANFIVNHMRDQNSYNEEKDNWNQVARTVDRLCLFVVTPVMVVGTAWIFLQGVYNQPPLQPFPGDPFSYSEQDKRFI", "UniProt P04756": "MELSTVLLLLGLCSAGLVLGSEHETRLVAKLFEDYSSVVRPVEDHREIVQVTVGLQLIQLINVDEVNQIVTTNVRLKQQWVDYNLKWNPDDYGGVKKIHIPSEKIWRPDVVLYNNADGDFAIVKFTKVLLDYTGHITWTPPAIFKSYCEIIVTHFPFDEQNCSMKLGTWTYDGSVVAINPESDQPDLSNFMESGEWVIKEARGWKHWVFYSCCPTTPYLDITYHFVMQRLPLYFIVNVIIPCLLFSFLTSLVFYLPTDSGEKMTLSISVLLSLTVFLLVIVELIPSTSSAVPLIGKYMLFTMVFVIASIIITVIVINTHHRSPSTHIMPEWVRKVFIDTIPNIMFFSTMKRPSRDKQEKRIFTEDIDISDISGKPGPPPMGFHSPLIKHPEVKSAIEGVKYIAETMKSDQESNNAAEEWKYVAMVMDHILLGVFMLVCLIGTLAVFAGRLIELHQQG", "UniProt P20782": "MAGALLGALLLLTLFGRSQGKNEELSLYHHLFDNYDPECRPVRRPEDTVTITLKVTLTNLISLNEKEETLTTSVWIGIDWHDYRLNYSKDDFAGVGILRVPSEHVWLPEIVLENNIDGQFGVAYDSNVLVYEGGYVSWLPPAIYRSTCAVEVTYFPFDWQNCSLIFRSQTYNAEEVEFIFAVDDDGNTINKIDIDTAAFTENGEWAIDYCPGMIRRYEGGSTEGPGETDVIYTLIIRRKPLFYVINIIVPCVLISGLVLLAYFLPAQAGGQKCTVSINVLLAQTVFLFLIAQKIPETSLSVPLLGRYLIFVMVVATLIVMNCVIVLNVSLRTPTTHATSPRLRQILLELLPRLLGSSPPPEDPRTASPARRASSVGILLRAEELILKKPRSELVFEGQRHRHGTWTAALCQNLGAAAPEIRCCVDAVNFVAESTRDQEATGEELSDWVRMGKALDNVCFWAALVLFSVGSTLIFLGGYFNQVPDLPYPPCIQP"},
  "source": "paper PMC6315591",
  "about": "(Marine Drugs, 2018)",
  "key": {"rat α9α10 nAChR": {"molecular_target": "rat α9α10 nAChR (Rattus norvegicus, UniProt P43144+Q9JLB5)"}, "mouse α1β1δε nAChR": {"molecular_target": "mouse α1β1δε nAChR (Mus musculus, UniProt P02716+P04756+P20782)"}, "adult muscle nAChRs": {"system": "adult muscle nAChRs", "conditions": "toxin preferentially bound to the α/γ interface; ref [46]; cited from earlier work"}},
  "data": [
    {"compound": "C[C@@H]1NC(=O)[C@@H]2CCCN2C(=O)[C@H](CC(N)=O)NC(=O)[C@@H]2CSSC[C@@H](C(N)=O)NC(=O)[C@H](CO)NC(=O)[C@H](Cc3ccc(O)cc3)NC(=O)[C@H](Cc3c[nH]cn3)NC(=O)[C@H](CCCNC(=N)N)NC(=O)CNC(=O)[C@H](CSSC[C@H](NC(=O)[C@@H](N)CCC(=O)O)C(=O)N2)NC1=O", "values": [
      {"measurement": "IC50", "setting": "rat α9α10 nAChR", "value": 9.35, "unit": "µM"},
      {"measurement": "IC50", "setting": "mouse α1β1δε nAChR", "value": 0.00586, "unit": "µM"}
    ]},
    {"compound": "αA-conotoxin OIVB", "values": [
      {"measurement": "lower affinity for adult muscle nAChRs", "setting": "adult muscle nAChRs", "value": 1800, "unit": "fold"}
    ]}
  ]
}
